Test system: Burkholderia cenocepacia complex K56-2
Details: Pip/Tazo alone, 18 h, MHII

Work on Piperacillin/Tazobactam [Pip/Tazo] yielded an MIC of 64 µg/mL.
